Construct, isoform or probe ends are uncertain for at least one entry. At least one verdict rests on a figure or table, not on a statement of the authors.
Target: T1, BfmR (Pseudomonas aeruginosa PAO1) (UniProt Q9HWS7)
T1 sequence: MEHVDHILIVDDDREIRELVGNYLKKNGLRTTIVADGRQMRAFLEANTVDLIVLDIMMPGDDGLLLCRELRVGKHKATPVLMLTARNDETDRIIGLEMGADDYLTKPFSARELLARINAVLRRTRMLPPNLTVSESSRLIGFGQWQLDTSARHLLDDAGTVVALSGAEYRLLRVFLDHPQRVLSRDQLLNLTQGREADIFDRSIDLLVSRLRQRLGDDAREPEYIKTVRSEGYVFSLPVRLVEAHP
Experiment: EMSA
Conditions: 10 uM acetyl phosphate (binding enhanced); recombinant protein; residues 1-246; probe letters rebuilt from the primers and the genome

CATCGGATTCCTGCGAATACTACTGATAACGATAATCTCTATCATTTACTCCATTTTTACATTTACATACACTTGCCCCGCCGCGAATTCCTACGCCGGTTTCCCACATAAACAAGAAACGC (double strand) [PfpvB]
binding result: binds
